System: tymus lymphocytes
Test: Induction of mitochondrial non-selective pore

O=[As]c1ccccc1 (centres unmarked)
effect of mitochondrial pore induction: release of Ca^2+ ions from mitochondria into cytoplasm
non-specific toxicity: high non-specific toxicity
